Experimental data: PubChem BioAssay AID624099 (ICCB-Longwood, 2012)
The whole screen tested about 21,000 reagents; below is a random part of them. 497 of them (2.4%) count as active. 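Higher z means weaker E2 silencing; only reporter increases were scored, and knock-downs that hurt cell survival may mask genuine repressor factors.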 No sequences are given here.

Screen: 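Knock-downs relieving repression by E2 of an HPV18 LCR luciferase reporter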 (primary screen)
Cell system: human C33A cervical carcinoma cells (HPV-negative) stably expressing BPV1 E2 and an HPV18 LCR luciferase reporter
Knock-down reagent: siRNA pool against human genes, 40 nM
Timing: 72 h
Detection: 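HPV18 LCR reporter light per well, converted to plate-wise z-scores that exclude control wells, and averaged over triplicate plates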
Direction: mean z-score and z-score: higher = stronger reporter signal, weaker E2 silencing
Hit rule: 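Hit if mean z-score reaches 2 and two or more of three replicate z-scores also reach 2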

What is on record for DBF4 (DBF4-CDC7 kinase regulatory subunit) [SID56478778]?
mean z-score: -0.19; z-score, replicate A: -0.52; z-score, replicate B: -0.15; z-score, replicate C: 0.1; activity call: inactive

For TRIM22 (tripartite motif containing 22) [SID134312054], what does the deposit list?
mean z-score: 1.11; z-score, replicate A: 0.94; z-score, replicate B: 1.05; z-score, replicate C: 1.33; activity call: inactive

With ZNF425 (zinc finger protein 425) [SID134326334], what does the deposit list?
mean z-score: -0.5; z-score, replicate A: -0.84; z-score, replicate B: -0.73; z-score, replicate C: 0.06; activity call: inactive

With UNC45A (unc-45 myosin chaperone A) [SID134321574], what was measured?
mean z-score: -0.71; z-score, replicate A: -0.83; z-score, replicate B: -0.46; z-score, replicate C: -0.83; activity call: inactive

What is on record for RSRC2 (arginine and serine rich coiled-coil 2) [SID134320141]?
mean z-score: -1.52; z-score, replicate A: -1.32; z-score, replicate B: -1.52; z-score, replicate C: -1.73; activity call: inactive

With FLRT2 (fibronectin leucine rich transmembrane protein 2) [SID134313934], how do the results read?
mean z-score: -0.01; z-score, replicate A: -0.07; z-score, replicate B: -0.05; z-score, replicate C: 0.09; activity call: inactive

For DAND5 (DAN domain BMP antagonist family member 5) [SID134320409], what does the deposit list?
mean z-score: -0.03; z-score, replicate A: 0.18; z-score, replicate B: -0.21; z-score, replicate C: -0.06; activity call: inactive

What is on record for ITPK1 (inositol-tetrakisphosphate 1-kinase) [SID56479109]?
mean z-score: -0.5; z-score, replicate A: -0.57; z-score, replicate B: -0.38; z-score, replicate C: -0.56; activity call: inactive

For CHAT (choline O-acetyltransferase) [SID134314132], what does the deposit list?
mean z-score: -1.24; z-score, replicate A: -1.17; z-score, replicate B: -1.12; z-score, replicate C: -1.43; activity call: inactive

For HPCAL1 (hippocalcin like 1) [SID134321360], what does the deposit list?
mean z-score: -0.16; z-score, replicate A: 0.04; z-score, replicate B: -0.34; z-score, replicate C: -0.2; activity call: inactive

With UBE2F (ubiquitin conjugating enzyme E2 F (putative)) [SID134313916], what does the deposit list?
mean z-score: 0.71; z-score, replicate A: 0.69; z-score, replicate B: 0.24; z-score, replicate C: 1.2; activity call: inactive

With BMS1P9 (BMS1 pseudogene 9) [SID134328066], what does the deposit list?
mean z-score: -4.23; z-score, replicate A: -4.14; z-score, replicate B: -4.41; z-score, replicate C: -4.16; activity call: inactive
